Pooled drug test results. Numbers come from NIAID ChemDB, via PubChem.

Shared fields: whole-cell or culture tests; organism: HIV-1

ECn is the concentration giving n% inhibition of infection, replication or growth. Lines come from different laboratories, so protocols vary. An empty or dashed field is not shown.

structure,read by,endpoint,setting,strain,changes,cell line,value
CN(C)C1(c2nc(C(=O)NCc3ccc(F)cc3)c(O)c(=O)[nH]2)CCCCC1,p24,EC50,50% human serum,IIIB,,MT-4,<1 µM
CN1c2ccccc2Sc2ccccc21,cytopathic effect / MTT,EC50,,IIIB,,MT-4,>20 µg/mL
Cc1cn([C@@H]2O[C@H](CO[Si](C)(C)C(C)(C)C)[C@]3(C=CS(=O)(=O)O3)[C@H]2O[Si](C)(C)C(C)(C)C)c(=O)n(C)c1=O,,EC50,,,,CEM,0.15 µM
COc1ccc(S(=O)(=O)N(CC(C)C)C[C@@H](O)[C@H](Cc2ccc(OC)c(Cl)c2)NC(=O)O[C@H]2CO[C@H]3OCC[C@H]32)cc1,MTT,EC50,,LAI,,MT-2,0.00035 µM
Cc1cn([C@@H]2C=CC3(CO)C[C@@H]23)c(=O)[nH]c1=O,,EC50,,IIIB,,MT-4,6.76 µg/mL
CC/C=C(\C)C[C@H](C)[C@H](O)[C@@H](C)[C@H]1O[C@@]2(C[C@@H](OC)[C@H]1C)O[C@H]([C@@H](C)[C@@H](O)[C@@H](C)/C=C/C=C/C=C/C=C/C=C/[C@@H](CC(=O)O)OC)[C@@H](C)C[C@@H]2O,,EC50,,LAI,,TZM-bl,0.007 µM
CC(C)(C)NC(=O)[C@@H]1CN(Cc2ccc(Cl)c(Cl)c2)CCN1C[C@@H](O)C[C@@H](Cc1ccccc1)C(=O)N[C@H]1c2ccccc2C[C@H]1O,p24,EC50,,IIIB,,MT-4,<0.2 µM
c1ccc2c(c1)Nc1ccccc1S2,cytopathic effect / MTT,EC50,,IIIB,,MT-4,>500 µg/mL
Cc1cn([C@H]2C[C@H](N=[N+]=[N-])[C@@H](CO)O2)c(=O)[nH]c1=O,p24,EC50,,126 BCH-189 (RT-M184V),RT-M184V,MT-4,0.06 µM
Cc1ccnc2c1NC(=O)c1cccnc1N2C1CC1,plaque count,EC50,,HXB2,RT-M41L Y181C T215Y,HT4 + HT4 LacZ-1,10 µM
CC(C)OC(=O)[C@H](C)N[P@](=O)(CO[C@H](C)Cn1cnc2c(N)ncnc21)Oc1ccccc1,XTT / absorbance,EC50,,IIIB,,MT-2,0.005 µM
Clc1ccc2c(c1)Nc1ccccc1S2,cytopathic effect / MTT,EC50,,IIIB,,MT-4,>500 µg/mL
COP(=O)(C[C@H](NP(=O)(O)OC[C@@H]1C=C[C@H](n2cc(C)c(=O)[nH]c2=O)O1)C(=O)O)OC,MTT,EC50,,IIIB,,MT-4,4.26 µM
CC1=C\[C@@H](C)[C@@H](CC(C)C)OC(=O)/C=C/C=C/C=C/CCCCC[C@@H](OS(=O)(=O)O)[C@H](O)[C@]2(O)O[C@@H](C[C@H](O)[C@H]2C)[C@@H](C)C(=O)\C=C\1,,EC50,,LAI,,TZM-bl,0.41 µM
CC(C)OC(=O)[C@H](C)N[P@@](=O)(CO[C@H](C)Cn1cnc2c(N)ncnc21)Oc1ccccc1,XTT / absorbance,EC50,,IIIB,,MT-2,0.06 µM
CC(C)C[C@H](NC(=O)[C@@H](O)[C@H](N)Cc1ccccc1)C(=O)O,p24,EC50,,IIIB,,HuT-78 + HUT 78,15 µg/mL
CN1CCCC1c1nc(C(=O)NCc2ccc(F)cc2)c(O)c(=O)[nH]1,p24,EC50,10% FBS,IIIB,,MT-4,<0.15 µM
Nc1nc(N)c2ncn([C@H]3CO[C@@H](CO)O3)c2n1,cytopathic effect / XTT,EC50,,,RT-F116Y Q151M T215Y,MT-2,160 µM
CC1=C\[C@@H](C)[C@@H](CC(C)C)OC(=O)/C(C)=C/C=C/C=C/CCC[C@@H](O)CC(=O)[C@H](C)[C@@H](O)CC[C@@H](C)C(=O)\C=C\1,,EC50,,LAI,,TZM-bl,0.07 µM
Nc1nccc2c1ncn2[C@@H]1C[C@H](CO)[C@@H](O)[C@H]1O,cytopathic effect / trypan blue,EC50,,IIIB,,MT-4,>1.1 µg/mL
CC(C)OC(=O)OCOP(=O)(CO[C@H](C)Cn1cnc2c(N)ncnc21)OCOC(=O)OC(C)C,XTT / absorbance,EC50,,IIIB,,MT-2,0.05 µM
CN(C)CCCN1c2ccccc2Sc2ccc(Cl)cc21,cytopathic effect / MTT,EC50,,IIIB,,MT-4,>100 µg/mL
CC(C)=CCN1Cc2cccc3[nH]c(=S)n(c23)C[C@@H]1C,cytopathic effect / XTT,EC50,,RF,,CEM + CEM-SS,<0.03 µM
O=c1ccn([C@@H]2CC[C@H](CO)[Se]2)c(=O)[nH]1,MTT,EC50,,IIIB,,MT-4,>100 µM
Cc1ccnc2c1NC(=O)c1cccnc1N2C1CC1,,EC50,,,,MT-4,<0.4 µM
O=C(NCc1ccc(F)cc1)c1nc(C2CCCNC2)[nH]c(=O)c1O,p24,EC95,10% FBS,IIIB,,MT-4,>10 µM
Cc1cn([C@H]2C[C@H](N=[N+]=[N-])[C@@H](CO)O2)c(=O)[nH]c1=O,cytopathic effect / MTT,EC50,,IIIB,,MT-4,0.0059 µM
NC(=O)c1ncn([C@@H]2O[C@H](CO)[C@@H](O)[C@H]2O)n1,cytopathic effect / XTT,EC50,,LAI,,MT-2,>100 µM
Cc1cn([C@H]2C=C[C@@H](CO)O2)c(=O)[nH]c1=O,MTT,EC50,,IIIB,,MT-4,0.3 µM
Cc1cn([C@@H]2CC[C@H](CO)[Se]2)c(=O)[nH]c1=O,MTT,EC50,,IIIB,,MT-4,>100 µM
C=C1C=C(OC)C(C)(C2=NC(C)(C)CO2)c2cc(OC)c(C)cc21,cytopathic effect / XTT,EC50,,RF,,CEM + CEM-SS,>81 µM
O=c1ccn([C@H]2CC[C@H](CO)[Se]2)c(=O)[nH]1,MTT,EC50,,IIIB,,MT-4,>100 µM
CC1=CC(=O)C(C)(C2=NC(C)(C)CO2)c2ccccc21,cytopathic effect / XTT,EC50,,RF,,CEM + CEM-SS,27 µM
CC(c1nc(C(=O)NCc2ccc(F)cc2)c(O)c(=O)[nH]1)N(C)C,p24,EC50,50% human serum,IIIB,,MT-4,<0.5 µM
Nc1nc2c(ncn2[C@H]2CO[C@@H](CO)O2)c(=O)[nH]1,cytopathic effect / XTT,EC50,,,RT-K65R Q151M,MT-2,41 µM
NCCCN1c2ccccc2Sc2ccc(Cl)cc21,cytopathic effect / MTT,EC50,,IIIB,,MT-4,>20 µg/mL
Cc1cn([C@H]2C=C[C@@H](COP(=O)(O)N(CC(=O)O)CC(=O)O)O2)c(=O)[nH]c1=O,MTT,EC50,,IIIB,,MT-4,0.31 µM
CN(C)C1(c2nc(C(=O)NCc3ccc(F)cc3)c(O)c(=O)[nH]2)CCOCC1,p24,EC50,10% FBS,IIIB,,MT-4,<0.04 µM

For reference, 5 entries again:

structure	read by	endpoint	setting	strain	changes	cell line	value
CC1=CC(=O)C(C)(C2=NC(C)(C)CO2)c2ccccc21	cytopathic effect / XTT	EC50		RF		CEM + CEM-SS	27 µM
CC(C)=CCN1Cc2cccc3[nH]c(=S)n(c23)C[C@@H]1C	cytopathic effect / XTT	EC50		RF		CEM + CEM-SS	<0.03 µM
Cc1cn([C@@H]2C=CC3(CO)C[C@@H]23)c(=O)[nH]c1=O		EC50		IIIB		MT-4	6.76 µg/mL
Cc1cn([C@@H]2CC[C@H](CO)[Se]2)c(=O)[nH]c1=O	MTT	EC50		IIIB		MT-4	>100 µM
CC(c1nc(C(=O)NCc2ccc(F)cc2)c(O)c(=O)[nH]1)N(C)C	p24	EC50	50% human serum	IIIB		MT-4	<0.5 µM